Laboratory results: patent US10335482B2 (priority 2012, dated 2019)

Legend:
[1] = general procedure: Fmoc solid-phase peptide synthesis; Tenta Gel P RAM, theoretical loading 0.20 meq/g; details: whole synthesis; for final HPLC purity: analytical HPLC
[2] = Fmoc solid-phase peptide synthesis; Tenta Gel P RAM, theoretical loading 0.20 meq/g; details: whole synthesis, analytical HPLC

Substance	final HPLC purity [1]	further results
KALGPGATLQTPWTACQGVG-NH2	87%	–
RAIPIPAGTLLSGGGRAIYKRTAILG	more than 95%	–
KFIIPNIFSALGGAISYDLNTNILNCI	–	final HPLC purity [2]: more than 80%
PEPTIDE1{K.A.L.G.P.G.A.T.L.Q.T.P.W.T.A.C.Q.G.V.G.[am]}|PEPTIDE2{W.I.I.P.G.L.N.P.L.V.G.G.G.K.L.Y.S.P.T.S.I.L.C.G.[am]}$PEPTIDE1,PEPTIDE2,16:R3-23:R3$$$V2.0	92%	–
RWLLLGLNPLVGGGRLYSPTSILG	more than 95%	–
(H-Gly-Ala-Lys-Arg-Arg-Val-Val-Gly-Gly-Cys(2-oxo-ethyl)-Gly-Gly-Ala-Lys-Arg-Arg-Val-Val-Gln-Arg-Glu-Lys-Arg-Ala-Gly-Glu-Arg-Glu-Lys-Arg-Ala-NH2)(H-Gly-Lys-Gly-Gly-Ile-Glu-Glu-Glu-Gly-Gly-Arg-Asp-Arg-Asp-Arg-Gly-Gly-Gln-Asp-Arg-Asp-Arg-NH2), acetate salt (amide bond between Cys(2-oxo-ethyl)^10 (A-chain) and Lys^2 (B-chain))	–	isolated mass ([1]; scale 15 mmoles (A-chain) and 30 mmoles (B-chain)): 16.6 g
KFIIPNIFSALSGGGAISYDLNTFLNCIG	–	final HPLC purity [2]: more than 80%
RALGPAATLQTPWTASLGVG	more than 95%	–
RFIIPNIFTALSGGRRALLYGATPYAIG	more than 95%	–
WIIPGLNPLVGGGKLYSPTSILCG-NH2	95%	–
RNIPIPVGDIYGGGDIYKRWQALCL	–	final HPLC purity [2]: 85%

For some assays here: Plain letter strings leave the end groups untold. For some assays here: HELM strings list residues between dots; [ac] is acetyl, [am] amide, other brackets name non-standard units.
